# Share of PSTVd loop 6 variants by leaf site

Data from the supplement of Wu et al. 2024, doi:10.1371/journal.ppat.1012142.

Region: loop 6 of PSTVd (intermediate strain), upper and lower strand joined, each 5' to 3', the first 5 letters being the upper strand, closing pairs included. Wild type: UGACCGCGAG. Varied positions (N): UNNNCGNNNG.

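A pool of all variants was put on leaves of three Nicotiana benthamiana plants. Samples came from the inoculated region at 5 days, the leaf margin at 10 and upper systemic leaves at 12.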

Values are reads per thousand in the sample; higher means more abundant, 0 means not found. Each value is the mean of three plants. "Pool" is the share in the plasmid pool used as inoculum, on the same scale. The inoculated region was read from the minus strand, the other sites from the plus strand. IR is the inoculated region, LM the leaf margin, Sys the systemic leaves. With 36,220-57,551 reads a sample, very low values are single reads. Wild type was 20.7 per thousand in the pool and the most common sequence in every sample (inoculated region 195, 198, 203; leaf margin 629, 591, 734; systemic leaves 942, 870, 868). Sequences that differ at fixed positions probably stem from PCR or sequencing errors, and defective variants can be carried along by functional ones.

| sequence | pool | IR | LM | Sys |
|---|---|---|---|---|
| UAAACGAACG | 0.131 | 0.608 | 0.0921 | 0.0188 |
| UAAACGAAGG | 0.0915 | 0.0407 | 0.0155 | 0 |
| UAAACGACAG | 0.131 | 0.627 | 0.119 | 0.0128 |
| UAACCGCGUA | 0.0131 | 0.631 | 0.130 | 0 |
| UAAGCGCCGG | 0.131 | 0.0773 | 0 | 0 |
| UACACGCCAG | 0.131 | 0.578 | 0.111 | 0 |
| UACGCGGUAG | 0.235 | 0.0777 | 0.00920 | 0 |
| UACGCGUUGG | 0.183 | 0.107 | 0 | 0 |
| UACUCGGGGG | 0.131 | 0.113 | 0.00773 | 0 |
| UACUCGUUCG | 0.131 | 0.0416 | 0.0276 | 0 |
| UAGACGCAUG | 0.196 | 0.0772 | 0 | 0 |
| UAGACGCCUG | 0.222 | 0.0957 | 0.0246 | 0 |
| UAGACGGCAG | 0.248 | 0.0534 | 0 | 0 |
| UAGACGGCUG | 0.288 | 0.0901 | 0.0247 | 0 |
| UAGCCGACCG | 0.248 | 0.112 | 0.00920 | 0 |
| UAGCCGAUGG | 0.614 | 0.161 | 0.159 | 0 |
| UAGCCGUGAG | 0.235 | 0.611 | 0.0691 | 0 |
| UAGGCGAACG | 0.183 | 0.0653 | 0 | 0 |
| UAGGCGUGGG | 0.222 | 0.0590 | 0.0169 | 0 |
| UAGGCGUGUG | 0.235 | 0.107 | 0 | 0 |
| UAGUCGAUUG | 0.288 | 0.102 | 0.00773 | 0 |
| UAUACUCGAG | 0.0131 | 0 | 0.00920 | 0 |
| UAUCCGGGUG | 0.209 | 0.119 | 0 | 0 |
| UCAACGCUAG | 0.0784 | 0.637 | 0.130 | 0 |
| UCAACGGUAG | 0.144 | 0.707 | 0.0683 | 0 |
| UCACCGAAUG | 0.431 | 0.0823 | 0 | 0 |
| UCACCGCGAG | 0.105 | 17.1 | 34.7 | 11.1 |
| UCAGCGGAUG | 0.170 | 0.0543 | 0.0169 | 0 |
| UCAUCUGGGG | 0.0131 | 0 | 0 | 0 |
| UCCACGCGUG | 0.118 | 0.108 | 0.00920 | 0 |
| UCCACGGUCG | 0.209 | 0.107 | 0.00920 | 0 |
| UCCUCCCUUG | 0.0131 | 0 | 0 | 0 |
| UCGUCGAUAG | 0.327 | 0.0998 | 0.0633 | 0 |
| UCGUCGCCUG | 0.144 | 0.0954 | 0 | 0 |
| UCUGCGCUGG | 0.288 | 0.0596 | 0.0184 | 0.00684 |
| UGACCGCGAG | 20.7 | 199 | 651 | 893 |
| UGAGCGGAGG | 0.314 | 0.102 | 0.0161 | 0 |
| UGAGCGUGAG | 0.261 | 0.660 | 0.0698 | 0.0270 |
| UGCCCGGUCG | 0.222 | 0.0602 | 0.00773 | 0 |
| UGCGCGGUGG | 0.275 | 0.0650 | 0 | 0 |
| UGCGCGUAUG | 0.248 | 0.0833 | 0.0666 | 0 |
| UGGACGGCCG | 0.0915 | 0.0710 | 0.00773 | 0 |
| UGGGCGUGUG | 0.222 | 0.101 | 0 | 0 |
| UGGUCGUAGG | 0.314 | 0.0655 | 0.00773 | 0 |
| UGUACGAAGG | 0.183 | 0.108 | 0.0169 | 0 |
| UGUCCGGUUG | 0.170 | 0.0704 | 0 | 0 |
| UGUGCGUUAG | 0.484 | 0.108 | 0.00920 | 0.0137 |
| UGUUCGUGCG | 0.301 | 0.0416 | 0.00920 | 0 |
| UUAACGUAUG | 0.418 | 0.131 | 0.0920 | 0 |
| UUCACGACUG | 0.379 | 0.0886 | 0 | 0 |
| UUCACGCGGG | 0.261 | 0.0534 | 0.0155 | 0 |
| UUCACGGUUG | 0.366 | 0.102 | 0 | 0 |
| UUCACGUAGG | 0.248 | 0.100 | 0.00773 | 0 |
| UUCCCGGAAG | 0.144 | 0.0836 | 0.0155 | 0 |
| UUCCCGGAUG | 0.314 | 0.0907 | 0 | 0 |
| UUCCCGGCAG | 0.157 | 0.106 | 0 | 0 |
| UUCGCGCCAG | 0.196 | 0.0773 | 0.0155 | 0 |
| UUGACGCGUG | 0.170 | 0.155 | 0.0247 | 0 |
| UUGGCGAGGG | 0.288 | 0.132 | 0 | 0 |
| UUGGCGUGAG | 0.301 | 0.107 | 0.00773 | 0 |
| UUGUCGUCGG | 0.275 | 0.107 | 0 | 0 |
| UUUCCGAACG | 0.222 | 0.0889 | 0.0309 | 0 |
| UUUCCGCCAG | 0.157 | 0.0840 | 0.0155 | 0 |
| UUUCCGGUGG | 0.235 | 0.126 | 0.0324 | 0 |
| UUUCCGUCUG | 0.222 | 0.184 | 0 | 0 |
| UUUCCGUUCG | 0.209 | 0.0771 | 0.0232 | 0 |
| UUUGAGGAGG | 0.0131 | 0 | 0 | 0 |

5 of these entries, quoted again:

UAGACGCCUG (pool 0.222) read IR 0.0957; LM 0.0246; Sys 0.
UAGCCGUGAG (pool 0.235) read IR 0.611; LM 0.0691; Sys 0.
UUCGCGCCAG (pool 0.196) read IR 0.0773; LM 0.0155; Sys 0.
UCAACGCUAG (pool 0.0784) read IR 0.637; LM 0.130; Sys 0.
UGAGCGGAGG (pool 0.314) read IR 0.102; LM 0.0161; Sys 0.